The supplement of paper PMC9931576
Human monoclonal antibodies against the spike receptor-binding domain (heavy:light variable regions). IC50 against pseudoviruses bearing the spike of naturally observed variants; lower = stronger; >10 µg/ml means not reached at the top dose. No active / inactive call. The stated detection limit is 0.0005 µg/ml; values near or below 0.001 µg/ml lie at the floor of the assay.

Assays:
Test in all cases: pseudovirus neutralization IC50; higher = weaker neutralization
[1] = target: SARS-CoV-2 Omicron BA.1 spike pseudovirus
Description: (§1)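 Single-round VSV luciferase pseudovirus mixed with antibody dilutions for 1 h and put on Huh-7 cells for about a day; IC50 from the dose curve.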

[2] = target: SARS-CoV-2 Omicron BA.2 spike pseudovirus
Description: as §1

[3] = target: SARS-CoV-2 Omicron BA.2.75 spike pseudovirus
Description: as §1

[4] = target: SARS-CoV-2 Omicron BA.5 spike pseudovirus
Description: as §1

[5] = target: SARS-CoV-2 Omicron BQ.1.1 spike pseudovirus
Description: as §1

[6] = target: SARS-CoV-2 Omicron XBB spike pseudovirus
Description: as §1

[7] = target: SARS-CoV-2 early D614G spike pseudovirus
Description: as §1

B1: BD56-949 (protein)
chain 1: QVQLVQSGAEVKKPGASVKVSCKASGYSFISFAMHWVRQAPGQRLEWMGWINPGTRDTEYSQKFQGRVTFTRDTSASTAYMELSSLRSEDTAVYYCARDRKWNGNYYYAMDVWGQGTTVTVSS
chain 2: DIQMTQSPSTLSASVGDRVTITCRASQTISSWLAWYQQKPGKAPNLLIYKASSLESGVPSRFSGSGTGTEFTLTISTLQPDDFATYYCQQYNSYPWTFGQGTKVEIK
pseudovirus neutralization IC50 [1]: 0.0366 µg/mL
pseudovirus neutralization IC50 [2]: 0.031 µg/mL
pseudovirus neutralization IC50 [3]: 0.0353 µg/mL
pseudovirus neutralization IC50 [4]: > 10 µg/mL
pseudovirus neutralization IC50 [5]: > 10 µg/mL
pseudovirus neutralization IC50 [6]: 2.65 µg/mL
pseudovirus neutralization IC50 [7]: 0.0528 µg/mL

B2: BD56-951 (protein)
chain 1: QVQLVQSGAEVKVPGSSVKVSCKASGGTFSSYSITWVRQAPGQGLEWMGRIIPILGIANYAQRFEGKVTITADKSTSTAYMELSSLKSEDTAVYYCARERGYTSGSGSAWYLDLWGRGTLVTLSS
chain 2: QSVLTQPPSVSGAPGQRVTISCTGSNSNIGAGYDVHWYQQLPGTAPKLLIYRNTNRPSGVPDRFFGSRSGTSASLAITGLQAEDEADYYCQSYDSSLSAVVFGGGTKLTVL
pseudovirus neutralization IC50 [1]: 0.225 µg/mL
pseudovirus neutralization IC50 [2]: 0.131 µg/mL
pseudovirus neutralization IC50 [3]: 0.116 µg/mL
pseudovirus neutralization IC50 [4]: > 10 µg/mL
pseudovirus neutralization IC50 [5]: > 10 µg/mL
pseudovirus neutralization IC50 [6]: 2.74 µg/mL
pseudovirus neutralization IC50 [7]: 0.461 µg/mL

B3: BD56-954 (protein)
chain 1: QVQLVQSGAEVKKPGASVKVSCKASGYTFTSYYMHWVRQAPGQGLEWMGIIYPSGGGTSYAQKFQGRVTMIRDTSTSTVYMEVSSLTSEDTAVYYCAREGCSSTSCFDYWGQGTLVTVSS
chain 2: SDVLTQPPSVSVAPGQAARITCGTNNIGSKSVHWYQQKPGQAPVLVVYDDSDRPSGIPERFSGSNSGNTATLTISGVEAGDEADYYCQVWDGSSDHLYVFGTGTKVTVL
pseudovirus neutralization IC50 [1]: > 10 µg/mL
pseudovirus neutralization IC50 [2]: > 10 µg/mL
pseudovirus neutralization IC50 [3]: > 10 µg/mL
pseudovirus neutralization IC50 [4]: > 10 µg/mL
pseudovirus neutralization IC50 [5]: > 10 µg/mL
pseudovirus neutralization IC50 [6]: > 10 µg/mL
pseudovirus neutralization IC50 [7]: > 10 µg/mL

B4: CV07-262 (protein)
chain 1: QVQLVQSGAEVKKPGASVKVSCKASGYTFTGYYMHWVRQAPGQGLEWMGWINPNSGGTNYAQTFQGRVTMTRDTSITTTYMELSRLRSDDTAVYYCARVGWYDFGTPGDYYYYYGMDVWGQGTTVTVSS
chain 2: QSALTQPASVSGSPGQSITISCTGTSSDVGSYNLVSWYQQHPGKAPKLMIYEGSKRPSGVSNRFSGSKSGNTASLTISGLQAEDEADYFCCSYAGTSTFVFGTGTKVTVL
pseudovirus neutralization IC50 [1]: > 10 µg/mL
pseudovirus neutralization IC50 [2]: > 10 µg/mL
pseudovirus neutralization IC50 [3]: > 10 µg/mL
pseudovirus neutralization IC50 [4]: > 10 µg/mL
pseudovirus neutralization IC50 [5]: > 10 µg/mL
pseudovirus neutralization IC50 [6]: > 10 µg/mL
pseudovirus neutralization IC50 [7]: 0.0184 µg/mL

B5: BD56-963 (protein)
chain 1: QVQLVESGGGLVKPGGSLRLSCAASGFTFSDSYMGWIRQAPGKGLEWVSYISDSSSYSNYADSVKGRFTIFRDNAKNSLFLRMNSLRAEDTAVYYCARVHSVANYDRLTGYYRVGDAEYFQQWGQGTLVTVSS
chain 2: SYVLTQPPSVSVAPGKTATITCGGSNIGSKSVHWYQQKPGQAPVLVIYYNSDRPSVIPERFSGSNSGNTATLTISRVDAGDEADYYCQVWDSSTDHVVFGGGTRLTVL
pseudovirus neutralization IC50 [1]: 0.143 µg/mL
pseudovirus neutralization IC50 [2]: 0.207 µg/mL
pseudovirus neutralization IC50 [3]: 0.146 µg/mL
pseudovirus neutralization IC50 [4]: 3.5 µg/mL
pseudovirus neutralization IC50 [5]: > 10 µg/mL
pseudovirus neutralization IC50 [6]: 1.5 µg/mL
pseudovirus neutralization IC50 [7]: 0.00734 µg/mL

B6: BD56-965 (protein)
chain 1: EVQLVESGGGLVKPGGSLRLSCAASGFMFSSYSINWVRQTPGKGLEWVSSISGLSDYISYGDSVKGRFTISRDNAKNSLYLQMNSLRADDTAVYYCARRGLGGEFLDVWGQGTTVTVSS
chain 2: DIVMTQSPDSLPVSLGERATINCKSSQSVLYNSNNKNYLAWYQQKPGQPPKLLIYWASTREAGVPDRFSGSGSGTDFTLTISSLQAEDVAVYYCQQYYSSPITFGQGTRLEIK
pseudovirus neutralization IC50 [1]: 0.0209 µg/mL
pseudovirus neutralization IC50 [2]: 0.00936 µg/mL
pseudovirus neutralization IC50 [3]: 0.0136 µg/mL
pseudovirus neutralization IC50 [4]: > 10 µg/mL
pseudovirus neutralization IC50 [5]: > 10 µg/mL
pseudovirus neutralization IC50 [6]: > 10 µg/mL
pseudovirus neutralization IC50 [7]: 0.00301 µg/mL

B7: BD56-971 (protein)
chain 1: EVQLVQSGAEVKKPGESLKISCKGSGYSFTSNWIGWVRQMPGKGLEWMGIIYPGDSDTRYSPSFQGQVTISADKSISTAYLQWSSLKASDTAMYYCARLGDIQTIDYWGQGTLVTVSS
chain 2: SSELTQDPAVSVALGQTVRITCQGDSLRSYYASWYQQKPGQAPVLVIYSQIRRPSGIPDRFSGSSSGSTASLTITGVQAEDEADYYCSYRDSSSNHLVFGGGTKLTVL
pseudovirus neutralization IC50 [1]: 1.03 µg/mL
pseudovirus neutralization IC50 [2]: 2.18 µg/mL
pseudovirus neutralization IC50 [3]: 2.05 µg/mL
pseudovirus neutralization IC50 [4]: 1.09 µg/mL
pseudovirus neutralization IC50 [5]: 0.752 µg/mL
pseudovirus neutralization IC50 [6]: 1.27 µg/mL
pseudovirus neutralization IC50 [7]: 3.6 µg/mL

B8: BD56-977 (protein)
chain 1: EVQLVESGGGLVQPGGSQRLSCAAAGFTFSRHWMHWIRQAPGKGLVWVARINSVGSIITYADSVKGRFTISRDNAKNTLHLQMNSLRAEDTAVYYCVRDATYYNLDYWGQGTLVTVSS
chain 2: NFMLTQPHSVSESPGKTVTISCTGSGGSIASNYVQWYQQRPGSGPTTVIYEDNQRPSGVPDRFSGSIDSSSNSASLTISGLKTEDEADYYCQSFDGDNQGGVFGGGTKLTVL
pseudovirus neutralization IC50 [1]: 3.01 µg/mL
pseudovirus neutralization IC50 [2]: > 10 µg/mL
pseudovirus neutralization IC50 [3]: > 10 µg/mL
pseudovirus neutralization IC50 [4]: > 10 µg/mL
pseudovirus neutralization IC50 [5]: > 10 µg/mL
pseudovirus neutralization IC50 [6]: > 10 µg/mL
pseudovirus neutralization IC50 [7]: 0.96 µg/mL

B9: BD56-1038 (protein)
chain 1: QVQLVQSGAEVKKPGASVKVSCKASGYNFKGYAINWVRQAPGQRLEWLGWINAGYGNTRYSQKLQGRVTISTDTSASTAYMVLSDLRSEDTAVYYCAKDVAVGHNYFDFWGLGTLVTVSS
chain 2: DIQMTQSPSTLSASVGDRVTITCRASQSLSSWVAWYQQKPGKAPKFLIYKASSLESGVPSRFSGSGYGTEFTLTINNLQPDDFATYFCQQYNSYPLTFGQGTRLEIK
pseudovirus neutralization IC50 [1]: > 10 µg/mL
pseudovirus neutralization IC50 [2]: > 10 µg/mL
pseudovirus neutralization IC50 [3]: > 10 µg/mL
pseudovirus neutralization IC50 [4]: > 10 µg/mL
pseudovirus neutralization IC50 [5]: > 10 µg/mL
pseudovirus neutralization IC50 [6]: > 10 µg/mL
pseudovirus neutralization IC50 [7]: > 10 µg/mL

B10: BD56-1057 (protein)
chain 1: QVQLVQSGTEVKKPGASVKISCKASGYSFNSHYMHWVRQAPGQGLEWMGIINPSAGSTTYAQKLQGRVTMTSDTSTTTVYMELRSLRSEDTAVYFCATDIAVVPATMSLEFWGPGTLVTVSS
chain 2: DIQLTQSPSSLSASVGDRVTITCRASQGIGNYLAWYQQKPGKAPKLLIYATSTLQSGVPSRFSGSGSGTDFTLTISSLQPEDFATYYCQQLNSYPPYTFGQGTKLEIK
pseudovirus neutralization IC50 [1]: > 10 µg/mL
pseudovirus neutralization IC50 [2]: > 10 µg/mL
pseudovirus neutralization IC50 [3]: > 10 µg/mL
pseudovirus neutralization IC50 [4]: > 10 µg/mL
pseudovirus neutralization IC50 [5]: > 10 µg/mL
pseudovirus neutralization IC50 [6]: > 10 µg/mL
pseudovirus neutralization IC50 [7]: > 10 µg/mL

B11: BD56-1064 (protein)
chain 1: QVQLVESGGGVVQPGRSLRLSCVVSGFTFSRYGMHWVRQAPGKGLEWVAVILYDGSNKDYADSVKGRFTISRDNSKNTLYLQMNSLRTEDTAVYYCAKVVGTYCSGGNCYGATLDYWGQGTLVTVSS
chain 2: DIQMTQSPSSLSASVGDRVTITCQASQDITNYLNWYQQKPGKAPKLLIYDASNLETGVPSRFSGSGSGTDFTFTINSLQPEDIATYYCQQYHYLPITFGQGTRLDIK
pseudovirus neutralization IC50 [1]: 3.53 µg/mL
pseudovirus neutralization IC50 [2]: 4.26 µg/mL
pseudovirus neutralization IC50 [3]: 3.14 µg/mL
pseudovirus neutralization IC50 [4]: 1.86 µg/mL
pseudovirus neutralization IC50 [5]: 2.57 µg/mL
pseudovirus neutralization IC50 [6]: 2.39 µg/mL
pseudovirus neutralization IC50 [7]: > 10 µg/mL

B12: BD56-1093 (protein)
chain 1: QITLKESGPTLVKPTQTLTLTCTFSGFSLSTSGVGVGWIRQPPGKALEWLALIYWDDDKRYGPALKNRLTITKDTSKNQVVLTLTKMDPADTATYYCAHFEATTNPLNWFDPWGQGTLVTVSS
chain 2: QSVLTQSPSVSEAPRQRVTISCTGSTSNIGNNPVNWYQQLPGKAPKLLIYYDDMVPSGVSDRFSGSKSGTTASLAISGLQSEDEAEYYCAAWDDRLHGPVFGGGTKLTVL
pseudovirus neutralization IC50 [1]: > 10 µg/mL
pseudovirus neutralization IC50 [2]: > 10 µg/mL
pseudovirus neutralization IC50 [3]: > 10 µg/mL
pseudovirus neutralization IC50 [4]: > 10 µg/mL
pseudovirus neutralization IC50 [5]: > 10 µg/mL
pseudovirus neutralization IC50 [6]: > 10 µg/mL
pseudovirus neutralization IC50 [7]: > 10 µg/mL
